Compound potency records, mixed from different reports. Data source: NIAID ChemDB in PubChem.

ECn: concentration that inhibits the pathogen or its effect by n%. Inhibition is in % at the dose shown (toxicity tests: loss of growth or viability). Conditions beyond the fields shown may differ between rows. Blank or dashed fields: not listed here. ICn: concentration for n% inhibition. MIC50, MIC90 and the like: level of inhibition, or share of isolates inhibited.

CCOC(=O)c1c(C)nc(NCCCCNc2ccnc3cc(Cl)ccc23)nc1-c1ccccc1 ; kind: culture ; measure: MIC99 ; species: Cryptococcus neoformans ; strain: VM-MCMMPI ; value: 8 µg/mL
O=C1C(c2[nH]c3ccc(S(=O)(=O)O)cc3c2O)=Nc2ccc(S(=O)(=O)O)cc21 ; kind: culture ; measure: inhibition ; dose: 10 µg/mL ; species: Adenovirus ; method: cytopathic effect ; strain: TYPE 3 ; cell line: Human amnion AV3 cells ; value: 0%
Clc1ccc(-c2cncc(NCc3ccco3)n2)cc1 ; kind: target ; protein: UL97 kinase ; measure: IC50 ; species: Cytomegalovirus ; value: <1 µM
CCOC(=O)c1c(C)nc(NCCCCNc2ccnc3cc(Cl)ccc23)nc1-c1ccc(F)cc1 ; kind: culture ; measure: MIC99 ; species: Cryptococcus neoformans ; strain: LMM 820 ; value: 8 µg/mL
Cc1ccc(C(=O)Nc2ccc(S(=O)(=O)O)c3cc(S(=O)(=O)O)cc(S(=O)(=O)O)c23)cc1NC(=O)c1cccc(NC(=O)Nc2cccc(C(=O)Nc3cc(C(=O)Nc4ccc(S(=O)(=O)O)c5cc(S(=O)(=O)O)cc(S(=O)(=O)O)c45)ccc3C)c2)c1 ; kind: culture ; measure: inhibition ; dose: 50 µg/mL ; species: Rhinovirus ; method: cytopathic effect ; cell line: Human embryonic lung cells ; value: 100%
Oc1ccccc1N=Cc1ccccc1 ; kind: culture ; measure: MIC ; species: Cryptococcus neoformans ; method: broth dilution ; strain: WP ; value: 8 µg/mL
COc1cccc(-c2cncc(N3CCN(c4ccc(OC)c(OC)c4)CC3)n2)c1 ; kind: target ; protein: UL97 kinase ; measure: inhibition ; dose: 1 µM ; species: Cytomegalovirus ; value: <50%
O=S(=O)([O-])c1ccc(O)c2ccccc12 ; kind: culture ; measure: inhibition ; dose: 50 µg/mL ; species: Herpes simplex virus ; method: cytopathic effect ; cell line: Human amnion AV3 cells ; value: 0%
C=CCc1ccc(O)c(OC)c1 ; kind: culture ; measure: MIC90 ; species: Candida albicans ; method: turbidity ; strain: 2281 ; value: 475 µg/mL
Nc1cc(S(=O)(=O)[O-])cc2cc(S(=O)(=O)[O-])ccc12 ; kind: culture ; measure: inhibition ; dose: 5 µg/mL ; species: Adenovirus ; method: cytopathic effect ; strain: TYPE 3 ; cell line: Human embryonic lung cells ; value: 0%
CCO/N=C/c1ccc(OCCC2CCN(c3ccc(Cl)nn3)CC2)cc1 ; kind: culture ; measure: EC50 ; species: Rhinovirus ; method: neutral red ; strain: FO 1-3772 (ICAM-1 receptor group 52) ; cell line: KB ; value: 0.052 µM
OCc1ccc(-c2cncc(N3CCN(c4cccc(C(F)(F)F)c4)CC3)n2)cc1 ; kind: target ; protein: UL97 kinase ; measure: inhibition ; dose: 10 µM ; species: Cytomegalovirus ; value: >15%
O=S(=O)([O-])c1cc(O)c2ccccc2c1 ; kind: culture ; measure: inhibition ; dose: 10 µg/mL ; species: Adenovirus ; method: cytopathic effect ; strain: TYPE 3 ; cell line: Human embryonic lung cells ; value: 0%
CCOC(=O)c1cnc(NCCCCNc2ccnc3cc(Cl)ccc23)nc1C ; kind: culture ; measure: MIC99 ; species: Cryptococcus neoformans ; strain: 96806 ; value: 45.3 µg/mL
Nc1ccccc1S(=O)(=O)O ; kind: culture ; measure: inhibition ; dose: 10 µg/mL ; species: Herpes simplex virus ; method: cytopathic effect ; cell line: Human amnion AV3 cells ; value: 0%
Oc1ccccc1C=Nc1ccccc1O ; kind: culture ; measure: MIC99 ; species: Cryptococcus neoformans ; strain: LMM 820 ; value: 4 µg/mL
O=S(=O)(O)c1cc(O)c2c(O)c(N=Nc3ccccc3)c(S(=O)(=O)O)cc2c1 ; kind: culture ; measure: inhibition ; dose: 5 µg/mL ; species: Adenovirus ; method: cytopathic effect ; strain: TYPE 3 ; cell line: Human embryonic lung cells ; value: 10%
O=[N+]([O-])c1ccc(C=Nc2ccccc2O)cc1 ; kind: culture ; measure: MIC ; species: Cryptococcus neoformans ; method: broth dilution ; strain: C-3-1 ; value: 8 µg/mL
CC(=O)c1ccccc1-c1cncc(N2CCN(c3ccc(F)cc3F)CC2)n1 ; kind: target ; protein: UL97 kinase ; measure: IC50 ; species: Cytomegalovirus ; value: <10 µM
Fc1ccc(N2CCCCC2)c(NC(=S)c2ccncc2)c1 ; kind: host protein ; protein: Abl (Q252H) ; measure: inhibition ; dose: 10 µM ; method: kinase activity ; value: -1%
CCOC(=O)c1c(C)nc(OCCCNc2ccnc3cc(Cl)ccc23)nc1-c1ccccc1 ; kind: culture ; measure: MIC99 ; species: Cryptococcus gattii ; strain: L-28/02 ; value: 8 µg/mL
COc1ccc2cc(-c3cncc(N4CCN(c5ccccc5OC)CC4)n3)ccc2c1 ; kind: target ; protein: UL97 kinase ; measure: inhibition ; dose: 10 µM ; species: Cytomegalovirus ; value: >15%
Cc1cc(-c2ccc(N=Nc3ccc4c(S(=O)(=O)O)cc(S(=O)(=O)O)c(N)c4c3O)c(C)c2)ccc1N=Nc1ccc2c(S(=O)(=O)O)cc(S(=O)(=O)O)c(N)c2c1O ; kind: culture ; measure: inhibition ; dose: 5 µg/mL ; species: Adenovirus ; method: cytopathic effect ; strain: TYPE 3 ; cell line: Human amnion AV3 cells ; value: 0%
CC(C)c1ccc(-c2cncc(N3CCN(c4ccncc4)CC3)n2)cc1 ; kind: target ; protein: UL97 kinase ; measure: IC50 ; species: Cytomegalovirus ; value: <1 µM
CCC(CC)[C@H](NC(C)=O)[C@@H]1[C@H](O)[C@@H](C(=O)O)C[C@H]1N=C(N)N ; kind: culture ; measure: EC50 ; species: Influenza A virus ; strain: H1N1 A/TEXAS/36/91 ; cell line: MDCK ; value: 0.09 µM

2 of the rows above, restated:

SMILES	kind	protein	measure	dose	species	method	strain	cell line	value
C=CCc1ccc(O)c(OC)c1	culture		MIC90		Candida albicans	turbidity	2281		475 µg/mL
COc1cccc(-c2cncc(N3CCN(c4ccc(OC)c(OC)c4)CC3)n2)c1	target	UL97 kinase	inhibition	1 µM	Cytomegalovirus				<50%